In patent publication US4137310A, “Method for the control of cattle grubs employing a phenylene bis[imino(thio]carbonyl)diphosphor(thio)-amidic acid ester” (dated 1979):

Test system: Cuterebra sp. larvae
Test: Efficacy for the control of Cuterebra sp. in infested mice, oral treatment
Conditions: female mice, treated 48 hours after infestation, examined 4 days posttreatment, dosage that kills 90% of the larvae, log-probit

Row | SMILES | Oral (mice) Dosage LD90
1 | CCOP(=O)(NC(=S)Nc1ccccc1NC(=S)NP(=O)(OCC)OCC)OCC | 24.3 mg/kg
2 | CCOP(=O)(NC(=S)Nc1ccc(Cl)cc1NC(=S)NP(=O)(OCC)OCC)OCC | 8.22 mg/kg
3 | CCOP(=O)(NC(=S)Nc1ccc(NC(=S)NP(=O)(OCC)OCC)c(Cl)c1)OCC | 151.84 mg/kg
